Earlier results on one substance are cited in patent publication US20110230558A1 (priority 2008, published 2011).

In this data set the test system is Escherichia coli 0157H7. The following applies: cited from earlier work.

In the case of “ethyl ester of the lauramide of the arginine monohydrochloride [LAE]”, the M.I.C. is 20 ppm.
